Laboratory results from article PMC8703873, “Structure and Activity of a Selective Antibiofilm Peptide SK-24 Derived from the NMR Structure of Human Cathelicidin LL-37” (Pharmaceuticals, 2021).
Non-standard residues stand in square brackets, D forms with d. Residues, ends and D or L forms follow the SMILES beside them. No end group written: not given here. Bip = N[C@@H](Cc1ccc(-c2ccccc2)cc1)C(=O)O

Assay: Circular dichroism: helicity, R1 and R2 in PBS or SDS micelles
Format: physicochemical
Details: for helicity in SDS: SDS micelles; for helix% in phosphate buffer: PBS
[1] = 60 mM SDS micelles, 0.5 mM peptide, 10 mM PBS pH 7, 25 °C
[2] = PBS: 0.5 mM peptide in 10 mM PBS, pH 7, 25 °C

RIVQRIKDFL-NH2 [RI-10]
R1 (molar ellipticity ratio 192/208) [1]: −2.17 | R1 (molar ellipticity ratio 192/208) [2]: −8.95 | helicity in SDS (0.5 mM peptide): 75%

SKEKIGKEFKRIVQRIKDFLRNLV-NH2 [SK-24]
R1 (molar ellipticity ratio 192/208) [1]: −2.31 | helix% in phosphate buffer (0.5 mM peptide): ~ 100% | R1 (molar ellipticity ratio 192/208) [2]: −1.14

GFKRIVQRIKDFLRNLV-NH2 (C-terminus assumed) [GF-17]
R1 (molar ellipticity ratio 192/208) [1]: −2.40 | helix% in phosphate buffer (0.5 mM peptide): 33% | R1 (molar ellipticity ratio 192/208) [2]: −1.91

CC(C)C[C@H](NC(=O)[C@H](CC(N)=O)NC(=O)[C@H](CCCNC(=N)N)NC(=O)[C@@H](CC(C)C)NC(=O)[C@H](Cc1ccc(-c2ccccc2)cc1)NC(=O)[C@H](CC(=O)O)NC(=O)[C@H](CCCCN)NC(=O)[C@@H](CC(C)C)NC(=O)[C@H](CCCNC(=N)N)NC(=O)[C@H](CCC(N)=O)NC(=O)[C@@H](NC(=O)[C@@H](CC(C)C)NC(=O)[C@H](CCCNC(=N)N)NC(=O)[C@H](CCCCN)NC(=O)[C@H](Cc1ccc(-c2ccccc2)cc1)NC(=O)CN)C(C)C)C(=O)N[C@H](C(N)=O)C(C)C [Peptide 17BIPHE2] (H-G[Bip]KR[dL]VQR[dL]KD[Bip][dL]RNLV-NH2; N-terminus assumed)
R1 (molar ellipticity ratio 192/208) [1]: −3.23 | R1 (molar ellipticity ratio 192/208) [2]: 1.18 | helicity in SDS (0.5 mM peptide): 25%

GIKEFKRIVQRIKDFLRNLV-NH2 [GI-20]
R1 (molar ellipticity ratio 192/208) [1]: −2.40 | helix% in phosphate buffer (0.5 mM peptide): 75% | R1 (molar ellipticity ratio 192/208) [2]: −2.48
